In ChEMBL document CHEMBL3414532 (J Med Chem, 2015):

Columns and labels:
[1] = target: T1, Human immunodeficiency virus type 1 reverse transcriptase (Human immunodeficiency virus 1, UniProt Q72547); assay: Inhibition of HIV1 recombinant reverse transcriptase polymerase activity using [3H]TTP and poly(rA)-oligo(dT)16 substrate incubated for 20 mins by liquid scintillation spectrometry
In short: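 HIV RT (WT or NNRTI-resistant mutant, 10 nM) added to start reaction with 10 μM [3H]-TTP and 40 nM poly(rA)-oligo(dT)16 in 50 mM Tris-HCl pH 7.4, 60 mM KCl, 5 mM MgCl2; 20 min at 37 °C. Quenched with ice-cold 10% TCA/20 mM sodium pyrophosphate, glass-fiber filtered, washed with TCA and ethanol; incorporation counted by scintillation.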

[2] = Selectivity index, ratio of IC50 for HIV integrase to IC50 for HIV1 recombinant reverse transcriptase associated catalytically active RNase H-mediated domain internal cleavage activity
In short: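 Ratio of HIV integrase strand-transfer IC50 to RNase H IC50 on HTS-1 substrate. Integrase (1 μM) preincubated 10 min at 25 °C with compound (0.13–100 μM final, duplicate) in 10 mM HEPES pH 7.5, 10% glycerol, 10 mM MnCl2, 1 mM DTT; biotin/Cy5 oligo duplex added, 30 min at 37 °C; EDTA stop, streptavidin capture, NaOH washes, formamide elution, 635/675 read.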

[3] = target: T1, Human immunodeficiency virus type 1 reverse transcriptase; assay: Inhibition of HIV1 recombinant reverse transcriptase associated catalytically active RNase H domain assessed as reduction in internal cleavage using HTS-1 RNA/DNA duplex substrate by fluorescence assay
[4] = target: Human immunodeficiency virus type 1 integrase (Human immunodeficiency virus 1, UniProt Q7ZJM1); assay: Inhibition of HIV integrase pre-incubated for 10 mins before DNA substrate addition
In short: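 Strand transfer assay: 1 μM HIV integrase in 10 mM HEPES pH 7.5, 10% glycerol, 10 mM MnCl2, 1 mM DTT, with compound at 0.13–100 μM final in duplicate, preincubated 10 min at 25 °C. Started with biotin/Cy5-labelled oligo duplex, run 30 min at 37 °C, stopped with EDTA. Products captured on streptavidin beads, washed with NaOH, eluted in formamide and read at 635/675. Mean ± SD from at least three experiments.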

[5] = target: T1, Human immunodeficiency virus type 1 reverse transcriptase; assay: Inhibition of HIV1 recombinant reverse transcriptase associated catalytically active RNase H domain assessed as reduction in RNA 5' end directed cleavage using HTS-3 RNA/DNA duplex substrate by fluorescence assay
[6] = target: T1, Human immunodeficiency virus type 1 reverse transcriptase; assay: Inhibition of HIV1 recombinant reverse transcriptase associated catalytically active RNase H domain assessed as reduction in DNA 3' end directed cleavage using HTS-2 RNA/DNA duplex substrate by fluorescence assay
[7] = target: T1, Human immunodeficiency virus type 1 reverse transcriptase; assay: Inhibition of reconstituted HIV1 RNase H using RNA/DNA duplex substrate by fluorescence assay
[8] = Therapeutic index, ratio of CC50 for human HeLa P4/R5 cells to EC50 for HIV infected in human HeLa P4/R5 cells; type: cell-based; conditions: read-out: Ratio CC50/EC50

Structure (SMILES) | pIC50 [1] | Ratio IC50 [2] | pIC50 [3] | pIC50 [4] | pIC50 [5] | pIC50 [6] | pIC50 [7] | selectivity ratio [8]
O=C1Cc2cc(Cc3ccc(C4CC4)cc3)ccc2C(=O)N1O | 5.89 | 6.3 |  |  |  |  |  | 
CS(=O)(=O)c1ccc(-c2ccc(Cc3ccc4c(c3)CC(=O)N(O)C4=O)cc2)cc1 | 5.74 | 9.2 | 5.92 | 4.96 | 5.85 | 5.89 | 5.92 | 
O=C1Cc2cc(Cc3ccc(C(F)(F)F)cc3)ccc2C(=O)N1O | 5.48 |  |  |  |  |  |  | 8
NC(=O)c1ccc(-c2ccc(Cc3ccc4c(c3)CC(=O)N(O)C4=O)cc2)cc1 | 5.59 |  | 5.62 | 5.04 | 5.54 | 5.68 |  | 
N#Cc1ccc(-c2ccc(Cc3ccc4c(c3)CC(=O)N(O)C4=O)cc2)cc1 | 6.12 |  |  |  |  |  |  | > 4
Cc1ccc(Cc2ccc3c(c2)CC(=O)N(O)C3=O)cc1 | 5.70 |  | 5.92 | 4.44 | 5.96 | 5.89 | 6.05 | 
O=C1Cc2cc(Cc3ccc(Cl)cc3)ccc2C(=O)N1O | 5.42 | 1.1 | 5.41 |  | 5.40 | 5.43 | 5.54 | 
O=C1Cc2cc(Cc3ccc(-c4ccccc4)cc3)ccc2C(=O)N1O | 5.80 |  |  |  |  |  |  | 17
O=C1Cc2cc(Cc3ccc(Br)cc3)ccc2C(=O)N1O | 5.82 |  | 5.85 | 4.55 | 5.96 | 5.89 | 6.00 | 
O=C1Cc2cc(Cc3ccc(-c4ccc(C(F)(F)F)cc4C(F)(F)F)cc3)ccc2C(=O)N1O | 5.19 |  | 5.29 | 5.04 | 5.25 | 5.06 | 5.60 | 
O=C1Cc2cc(Cc3ccc(-c4ccc(F)cc4)cc3)ccc2C(=O)N1O | 5.43 |  |  |  |  |  |  | 
COc1ccc(-c2ccc(Cc3ccc4c(c3)CC(=O)N(O)C4=O)cc2)cc1 | 5.60 |  | 5.52 | < 4.00 | 5.70 | 5.51 | 6.00 | 
O=C1Cc2cc(Cc3ccc(-c4ccncc4)cc3)ccc2C(=O)N1O | 6.05 | 11 | 6.30 | 5.24 | 6.00 | 5.89 |  | 
O=C1Cc2cc(Cc3ccc(F)cc3F)ccc2C(=O)N1O | 5.64 |  | 5.80 | 4.70 | 6.00 | 5.82 | 5.92 | 

pIC50: −log10 of the molar value.
